These are literature values, as cited in PMC11956011, “An Amazing 30-Year Journey around the DABO Family: A Medicinal Chemistry Lesson on a Versatile Class of Non-nucleoside HIV-1 Reverse Transcriptase Inhibitors” (Journal of Medicinal Chemistry, 2025).

The subject of the series is Y181I HIV-1 RT. As to conditions: Fig 5.

As for `CC(c1cc(=O)[nH]c(SC2CCCC2)n1)c1c(F)cccc1Cl` (centres unmarked) [compound 40], the “ID50: Y181I” value is 16.6 µM.

As for `CCCCSc1nc(C(C)c2c(F)cccc2Cl)cc(=O)[nH]1` (centres unmarked) [compound 39], the “ID50: Y181I” value was 15.2 µM.
